Assay results taken from ChEMBL document CHEMBL4024787, “Target Identification and Mode of Action of Four Chemically Divergent Drugs against Ebolavirus Infection” (J Med Chem, 2018).

Target: T1, Envelope glycoprotein (Zaire ebolavirus (strain Mayinga-76) (ZEBOV) (Zaire Ebola virus)) (UniProt Q05320)
T1 sequence (whole entry): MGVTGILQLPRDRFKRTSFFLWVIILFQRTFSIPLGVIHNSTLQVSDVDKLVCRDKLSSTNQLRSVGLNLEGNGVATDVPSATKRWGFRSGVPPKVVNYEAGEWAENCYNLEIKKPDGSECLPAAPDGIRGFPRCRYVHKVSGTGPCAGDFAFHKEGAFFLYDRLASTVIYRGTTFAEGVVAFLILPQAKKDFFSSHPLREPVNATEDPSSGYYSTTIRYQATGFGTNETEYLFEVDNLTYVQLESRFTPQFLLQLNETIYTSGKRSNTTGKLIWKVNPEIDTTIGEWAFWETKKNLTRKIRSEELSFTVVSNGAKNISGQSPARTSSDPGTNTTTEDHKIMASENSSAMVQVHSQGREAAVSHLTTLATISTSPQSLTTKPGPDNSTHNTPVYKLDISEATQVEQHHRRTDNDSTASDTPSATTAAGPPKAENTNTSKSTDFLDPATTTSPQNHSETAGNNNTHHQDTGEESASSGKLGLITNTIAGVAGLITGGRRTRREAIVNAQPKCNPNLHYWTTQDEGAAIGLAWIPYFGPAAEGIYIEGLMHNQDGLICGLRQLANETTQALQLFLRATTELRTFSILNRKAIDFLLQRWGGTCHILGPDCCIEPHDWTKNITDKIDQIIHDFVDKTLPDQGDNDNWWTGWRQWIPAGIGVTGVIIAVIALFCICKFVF
Assay: Binding affinity to Ebola virus Zaire Mayinga-76 recombinant GP protein assessed as change in melting temperature at 500 uM by SYPRO orange dye-based fluorescence assay
Conditions: 1976

Compound: CN(C)CCOc1ccc(/C(=C(/CCCl)c2ccccc2)c2ccccc2)cc1 [TOREMIFENE]
- ΔTm: -15 °C
